Measured values from several laboratories, pooled; numbers as filed in NIAID ChemDB.

Shared fields: whole-cell or culture tests; organism: HIV-1; cells: CEM + CEM/O; measure: EC50

Blank or dashed fields: not listed here.

| structure | strain or isolate | read by | result |
|---|---|---|---|
| COC(=O)[C@H](C)NP(=O)(OC[C@@H]1C=C[C@H](n2cc(C)c(=O)[nH]c2=O)O1)Oc1ccccc1 | IIIB | syncytia | 0.085 µM |
| Cc1cccc2c1OP(=O)(OC[C@@H]1C=C[C@H](n3cc(C)c(=O)[nH]c3=O)O1)OC2 | IIIB | syncytia | 0.1 µM |
| COC(=O)CCc1cccc2c1OP(=O)(OC[C@@H]1C=C[C@H](n3cc(C)c(=O)[nH]c3=O)O1)OC2 | IIIB | syncytia | 0.09 µM |
| COC(=O)CC(OP(=O)(OC[C@@H]1C=C[C@H](n2cc(C)c(=O)[nH]c2=O)O1)OC(CC(=O)OC)c1ccc(OC(C)=O)cc1)c1ccc(OC(C)=O)cc1 | IIIB | cytopathic effect / syncytia | 0.25 µM |
| COC(=O)C(C)(C)NP(=O)(OC[C@@H]1C=C[C@H](n2cc(C)c(=O)[nH]c2=O)O1)Oc1ccccc1 | IIIB Laboratory clade B | syncytia | 0.29 µM |
| Cc1cn([C@H]2C[C@H](N=[N+]=[N-])[C@@H](COP3(=O)OCc4ccccc4O3)O2)c(=O)[nH]c1=O |  |  | 0.004 µM |
| Cc1cn([C@H]2C=C[C@@H](CO)O2)c(=O)[nH]c1=O | IIIB | syncytia | 0.23 µM |
| CC(=O)Oc1ccc(COP(=O)(OCc2ccc(OC(C)=O)cc2)OC[C@@H]2C=C[C@H](n3cc(C)c(=O)[nH]c3=O)O2)cc1 | IIIB | cytopathic effect / syncytia | 0.17 µM |
| Cc1cn([C@H]2C=C[C@@H](COP3(=O)Oc4ccccc4C(C)O3)O2)c(=O)[nH]c1=O |  |  | 0.22 µM |
| CCCCCCCCCCCCCCCCOP(=O)(O)OC[C@H]1O[C@@H](n2cc(C)c(=O)[nH]c2=O)C[C@@H]1N=[N+]=[N-] | IIIB | syncytia | 0.17 µM |
| Cc1cn([C@H]2C=C[C@@H](COP(=O)(OCc3ccccc3)OCc3ccccc3)O2)c(=O)[nH]c1=O | IIIB | cytopathic effect / syncytia | 1.57 µM |
| Cc1cn([C@H]2C=C[C@@H](COP3(=O)OCc4ccc5ccccc5c4O3)O2)c(=O)[nH]c1=O | IIIB | syncytia | 0.11 µM |
| Cc1cn([C@H]2C[C@H](N=[N+]=[N-])[C@@H](COP3(=O)OCc4cc(Cl)ccc4O3)O2)c(=O)[nH]c1=O |  |  | 0.005 µM |
| CCCCCCCCCCCCOP(=O)(O)OC[C@H]1O[C@@H](n2cc(C)c(=O)[nH]c2=O)C[C@@H]1N=[N+]=[N-] | IIIB | syncytia | 0.31 µM |
| COc1ccc2c(c1)COP(=O)(OC[C@H]1O[C@@H](n3cc(C)c(=O)[nH]c3=O)C[C@@H]1N=[N+]=[N-])O2 |  |  | 0.006 µM |
| CCOC(=O)CC1OP(=O)(OC[C@@H]2C=C[C@H](n3cc(C)c(=O)[nH]c3=O)O2)Oc2ccccc21 | IIIB | cytopathic effect / syncytia | 0.16 µM |
| Cc1cn([C@H]2C[C@H](N=[N+]=[N-])[C@@H](COP3(=O)OCc4cc([N+](=O)[O-])ccc4O3)O2)c(=O)[nH]c1=O |  |  | 0.008 µM |
| CCCCCCCCCCCCCCOP(=O)(O)OC[C@H]1O[C@@H](n2cc(C)c(=O)[nH]c2=O)C[C@@H]1N=[N+]=[N-] | IIIB | syncytia | 0.61 µM |

Neighbouring rows are from separate reports. ECn: concentration that inhibits the pathogen or its effect by n%.